Experimental data: PubChem BioAssay AID485294 (National Center for Advancing Translational Sciences (NCATS), 2010)
The list shows a part of the results, in another mix than the full data. Records with an inconclusive call do not appear. Active and inactive are the calls of the source. Calls follow the shape of the dose curve; as a rule, active = well fitted inhibition curve with a large enough effect; inconclusive = small, poorly fitted or top-dose-only effect; inactive = flat fitted curve, though single readings scatter.

Sequences of proteins named here, by UniProt entry; tags and fusion partners are left off. A change or cut given only in a name is not applied to a line headed by its entry.
UniProt P00811: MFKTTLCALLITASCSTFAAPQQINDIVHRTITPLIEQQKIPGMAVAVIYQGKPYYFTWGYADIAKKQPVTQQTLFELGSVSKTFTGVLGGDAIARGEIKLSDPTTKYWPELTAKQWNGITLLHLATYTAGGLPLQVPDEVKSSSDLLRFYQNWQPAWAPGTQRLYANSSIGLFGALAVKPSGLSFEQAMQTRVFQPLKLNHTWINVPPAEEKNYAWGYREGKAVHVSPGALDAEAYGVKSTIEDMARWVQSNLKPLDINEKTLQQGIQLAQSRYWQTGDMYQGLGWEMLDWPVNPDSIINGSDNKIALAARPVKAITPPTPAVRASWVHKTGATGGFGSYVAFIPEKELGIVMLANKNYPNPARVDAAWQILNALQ

The compounds below were run against Beta-lactamase (Escherichia coli (strain K12)) (UniProt P00811) (assay: qHTS Inhibitors of AmpC Beta-Lactamase (assay with detergent)). Conditions: AmpC hydrolysis of nitrocefin, absorbance 480 nm, 0.01% Triton; at 114 µM (top of the series).
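Also: 0% = no-compound wells and -100% = no-enzyme wells; nearly all actives have a fitted effect of over 25% in size.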

Row | Structure (SMILES) | activity change, negative = inhibition
1 | O=C(/C=C/c1ccccc1)OC1CN2CCC1CC2 (stereo unspecified) | inactive: 4.89%
2 | CN(C)C1(CNC(=O)c2ccc(S(C)(=O)=O)cc2)CCCCC1 | inactive: 2.01%
3 | Cc1nn(-c2ccccc2)c2c1P(=O)(N1CCOCC1)N(C)C(c1ccccc1)=N2 (stereo unspecified) | inactive: 0%
4 | CC1CCC(C(C)C)C(OP(=O)(Nc2ccccn2)c2ccccc2)C1 (stereo unspecified) | inactive: 5.51%
5 | Cc1ccc(C(=O)OC2CN3CCC2CC3)cc1 (stereo unspecified) | inactive: -3.4%
6 | O=[As](O)(c1cccs1)c1cccs1 | inactive: -2.99%
7 | Cc1ccc(OCC(=O)OC2CN3CCC2CC3)cc1 (stereo unspecified) | inactive: 0.408%
8 | O=P1(Nc2ccc(Br)cn2)COc2ccccc2OC1 | inactive: 15.3%
9 | NS(=O)(=O)c1cccc(NC(=O)COC(=O)C(O)(c2ccccc2)c2ccccc2)c1 | inactive: 1.57%
10 | Nc1cccc([As](=O)(O)c2ccccc2)c1 | inactive: -17.1%
11 | O=P1(Nc2ncccn2)COc2ccccc2OC1 | inactive: -2.41%
12 | Clc1n[nH]nc1-c1nn[nH][15n]1 | inactive: 3.73%
13 | CC(C)(C)C(=O)NC(Sc1ncccn1)C(Cl)(Cl)Cl (stereo unspecified) | inactive: -0.4%
14 | CCOP(=O)(Nc1ccc(C)cn1)OCC | inactive: 2.55%
15 | O=P1(Nc2ccccn2)COc2ccccc2OC1 | inactive: 4.49%
16 | CCC1=CC2Cc3nc4ccc(Cl)cc4c(N)c3C(C1)C2 (stereo unspecified) | inactive: -18.3%
17 | CCOP(=O)(NC(=NC(C)c1ccccc1)NC(C)c1ccccc1)OCC (stereo unspecified) | inactive: -4.67%
18 | O=[As](O)(c1ccccc1Br)c1ccccc1Br | inactive: -12.7%
19 | COc1ccccc1CNC(=O)COC(=O)C(O)(c1ccccc1)c1ccccc1 | inactive: 0%
20 | Cc1cccc(OCC(=O)OC2CN3CCC2CC3)c1 (stereo unspecified) | inactive: -7.38%
21 | O=[As](O)(c1cccc(O)c1)c1cccc(O)c1 | inactive: 5.95%
22 | O=[As](O)(O)c1cccnc1 | inactive: -6.56%
23 | COc1cc(C(=O)NCC2(N3CCOCC3)CCCCC2)cc(Cl)c1OC(C)C | inactive: -0.478%
24 | CS(=O)(=O)c1ccc(Cl)c(NC(=O)COC(=O)C(O)(c2ccccc2)c2ccccc2)c1 | inactive: 8%
25 | O=C(OC1CN2CCC1CC2)c1ccc(Cl)cc1 (stereo unspecified) | inactive: 2.2%
26 | COc1cc(C2NCCC3(OCCO3)C2(C)C)cc(OC)c1OC (stereo unspecified) | inactive: 1.7%

Row | Structure (SMILES) | activity change, negative = inhibition
27 | CCOP(=O)(Nc1cccc2ccccc12)OCC | inactive: -11%
28 | CCCOP(=S)(Nc1nc(N)cc(=O)[nH]1)OCCC | inactive: -8.31%
29 | Nc1cccc2c([As](=O)(O)O)cccc12 | inactive: 8.79%
30 | Cc1ccc(NCCc2c([N+](=O)[O-])cc([N+](=O)[O-])cc2[N+](=O)[O-])cc1 | inactive: -11.2%
31 | Nc1ccccc1[As](=O)(O)c1ccccc1 | inactive: -10.4%
32 | O=C(O)COc1ccc([As](=O)(O)O)cc1[N+](=O)[O-] | inactive: 4.1%
33 | CS(=O)(=O)c1cc([N+](=O)[O-])c2no[n+]([O-])c2c1 | inactive: -9.62%
34 | CCOP1(=S)c2c(C)nn(CCC#N)c2N=C(c2ccccc2F)N1C (stereo unspecified) | inactive: 1.83%
35 | O=P(Nc1nccs1)(Oc1ccccc1)Oc1ccccc1 | inactive: 1.22%
36 | O=P(Nc1nccs1)(c1ccccc1)c1nc2ccccc2s1 (stereo unspecified) | inactive: -14.7%
37 | O=[N+]([O-])c1ccc2c(c1)nnn2O | inactive: -4.19%
38 | N#CCCN(C(=O)COC(=O)C(O)(c1ccccc1)c1ccccc1)c1ccc(F)cc1 | inactive: 0%
39 | CCOP1(=S)c2c(C)nn(CCC#N)c2N=C(c2ccc(F)cc2)N1C (stereo unspecified) | inactive: -3.76%
40 | CN(C(=O)Cc1ccccc1)[C@@H]1CC[C@]2(CCCO2)C[C@H]1N1CCCC1 | inactive: -2.08%
41 | NC(=O)Nc1ccc([As](=O)(O)O)cc1 | inactive: 0.3%
42 | Cc1ccc2nc3c(c(C)c2c1)CC(C(Cl)Cl)S3 (stereo unspecified) | inactive: -12.6%
43 | Cc1ccc(OP(=O)(Nc2ccc([N+](=O)[O-])cn2)Oc2ccc(C)cc2)cc1 | inactive: -9.45%
44 | C[As](=O)(O)c1cccc(C(=O)O)c1 | inactive: -11%
45 | O=[As](O)(c1ccc(O)cc1)c1ccccc1O | inactive: 0.0575%
46 | COc1cc(C(=O)NCC2(N3CCOCC3)CCCCC2)ccc1OCC(C)C | inactive: -0.871%
47 | CC(C)NC(=O)NP(=O)(Oc1ccccc1)Oc1ccccc1 | inactive: -2.1%
48 | CCN(CC)C(=S)SC(NC=O)C(Cl)(Cl)Cl (stereo unspecified) | inactive: 0.399%
49 | O=[N+]([O-])c1cc([N+](=O)[O-])c(-c2ccn[nH]2)s1 | inactive: 1.31%
50 | CC(C)c1ccc(OP(=O)(Nc2ccccn2)Oc2ccccc2F)cc1 (stereo unspecified) | inactive: 2.31%
51 | ClCCSc1nnc(-c2cccnc2)o1 | inactive: 2.97%
